Source: article PMC3240604, “Inhibition of Apoptosis and NF-κB Activation by Vaccinia Protein N1 Occur via Distinct Binding Surfaces and Make Different Contributions to Virulence” (2011)

Key:
Assay in all cases: SEC-MALS
[1] = target: purified Q61Y N1 (C-terminal His tag), vaccinia virus (UniProt P17361)
[2] = target: purified R58Y N1 (C-terminal His tag), vaccinia virus (UniProt P17361)
[3] = target: purified R71Y N1 (C-terminal His tag), vaccinia virus (UniProt P17361)

For “purified Q61Y N1 (C-terminal His tag) Q61Y | C40S”, which stoichiometry N [1] is on record?
The stoichiometry N was 2.

For “purified R58Y N1 (C-terminal His tag) R58Y | C40S”, which stoichiometry N [2] is on record?
Its stoichiometry N is 2.

Which stoichiometry N [3] does the source give for “purified R71Y N1 (C-terminal His tag) R71Y | C40S” here?
The stoichiometry N was 2.
